Experimental data published in article PMC7024169, “Synthesis and Antimalarial Activity of 1,4-Disubstituted Piperidine Derivatives” (Molecules, 2020).

Assays:
[1] = test system: Plasmodium falciparum 3D7 Strain; experiment: Antiplasmodial SYBR Green I assay, chloroquine-sensitive 3D7 strain; assay type: cell-based
[2] = test system: Plasmodium falciparum W2 Strain; experiment: Antiplasmodial SYBR Green I assay, chloroquine-resistant W2 strain; assay type: cell-based

N-(1-(2-Chlorobenzylpiperidin-4-yl)-2-(2-chlorophenoxy)-N-phenylacetamide
activity against 3D7 strain, in words [1]: good activity
activity against W2 strain, in words [2]: good activity
